A mixed list of measured activities; the numbers were collected in NIAID ChemDB.

Shared fields: growth or infection tests; organism: Aspergillus clavatus; read by: broth dilution; measure: MIC

Lines come from different laboratories, so protocols vary. Blank or dashed fields: not listed here.

structure	strain or isolate	result
CCCCOc1ccc(-c2csc(NS(=O)(=O)C3C(=O)ONN3c3ccc(C)cc3)n2)cc1	MTCC323	250 µg/mL
O=C(NN1C(=O)/C(=C/c2cc3ccccc3nc2Cl)N=C1c1ccccc1)c1cccc([N+](=O)[O-])c1	MTCC 1323	100 µg/mL
Cc1cc(Cl)[nH]c2ccc3c(=O)c(C(=O)NN=Cc4ccc(Cl)cc4)cnc3c12		250 µg/mL
O=C(NN1C(=O)/C(=C/c2cc3ccccc3nc2Cl)N=C1c1ccccc1)c1cccc(Cl)c1	MTCC 1323	100 µg/mL
O=C(CSc1nnc(-c2ccc(N=Cc3cccs3)cc2)o1)Nc1ccc([N+](=O)[O-])cc1	MTCC 1323	500 µg/mL
COc1ccc(-c2nc3ccccc3c(=O)n2-c2ccc(NS(=O)(=O)C3C(=O)ONN3c3ccc(C)cc3)cc2)cc1	MTCC323	250 µg/mL
COc1cc(C=NNC(=O)c2cnc3c(ccc4[nH]c(Cl)cc(C)c43)c2=O)ccc1O		1000 µg/mL
Cc1ccc(N2NOC(=O)C2S(=O)(=O)Nc2nc3ccc([N+](=O)[O-])cc3s2)cc1	MTCC323	250 µg/mL
Cc1ccc(C2C(Cl)C(=O)N2NC(=O)c2cnc3c(ccc4[nH]c(Cl)cc(C)c43)c2=O)cc1		>1000 µg/mL
O=C(CSc1nnc(-c2ccc(N=Cc3cccs3)cc2)o1)Nc1ccc(F)cc1	MTCC 1323	1000 µg/mL
O=C(NN1C(=O)/C(=C/c2cc3ccccc3nc2Cl)N=C1c1ccccc1)c1ccc(Cl)cc1O	MTCC 1323	500 µg/mL
Cc1ccccc1NC(=O)CSc1nnc(-c2ccc(N=Cc3cccs3)cc2)o1	MTCC 1323	500 µg/mL
O=C(NN1C(=O)/C(=C/c2cc3ccccc3nc2Cl)N=C1c1ccccc1)c1ccncc1	MTCC 1323	100 µg/mL
Cc1cc(Cl)[nH]c2ccc3c(=O)c(C(=O)NN=Cc4cccc([N+](=O)[O-])c4O)cnc3c12		500 µg/mL
O=C(CSc1nnc(-c2ccc(N=Cc3cccs3)cc2)o1)Nc1ccc(Br)cc1	MTCC 1323	1000 µg/mL
COc1ccc(C2C(Cl)C(=O)N2NC(=O)c2cnc3c(ccc4[nH]c(Cl)cc(C)c43)c2=O)cc1		>1000 µg/mL
O=C(NN1C(=O)/C(=C/c2cc3ccccc3nc2Cl)N=C1c1ccccc1)c1ccc([N+](=O)[O-])cc1	MTCC 1323	200 µg/mL
Cc1cc(Cl)[nH]c2ccc3c(=O)c(C(=O)NN=Cc4ccccc4)cnc3c12		>1000 µg/mL
COc1ccc(-c2nc3ccccc3c(=O)n2-c2ccc(NS(=O)(=O)C3C(=O)ONN3c3ccc(C)cc3)cc2)cc1[N+](=O)[O-]	MTCC323	>1000 µg/mL

For reference, 2 entries again:

structure	strain or isolate	result
Cc1ccccc1NC(=O)CSc1nnc(-c2ccc(N=Cc3cccs3)cc2)o1	MTCC 1323	500 µg/mL
O=C(NN1C(=O)/C(=C/c2cc3ccccc3nc2Cl)N=C1c1ccccc1)c1ccc([N+](=O)[O-])cc1	MTCC 1323	200 µg/mL